Data as given in PubChem BioAssay AID624099 (ICCB-Longwood, 2012)

Aim: 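Host factors E2 relies on to silence an HPV18 LCR reporter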 (primary screen)
Cell system: human C33A cervical carcinoma cells (HPV-negative) stably expressing BPV1 E2 and an HPV18 LCR luciferase reporter
Reagents: siRNA pool against human genes, 40 nM
Time to read-out: 72 h
Read-out: 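Per-well luciferase luminescence, z-scored on each plate against the plate mean and SD with control wells left out, then averaged across three replicate plates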
Scale: mean z-score and z-score: higher = stronger reporter signal, weaker E2 silencing
Call rule: 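Hit if mean z-score reaches 2 and two or more of three replicate z-scores also reach 2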
The whole screen tested about 21,000 reagents; this is an unselected part. 497 of them (2.4%) were called active. 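Higher z means weaker E2 silencing; only reporter increases were scored, and knock-downs that hurt cell survival may mask genuine repressor factors.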

LOC388345 (retired record) gave mean z-score 0.41; z-score, replicate A = 0.16; z-score, replicate B = 0.2; z-score, replicate C = 0.88; inactive.
After knock-down of LIMS1 the results were mean z-score -1.73; z-score, replicate A = -1.77; z-score, replicate B = -1.86; z-score, replicate C = -1.57; inactive.
LYPD5 showed mean z-score -0.52; z-score, replicate A = -0.72; z-score, replicate B = -0.33; z-score, replicate C = -0.52; inactive.
Against PPP1R16B, the entry reads mean z-score 0.77; z-score, replicate A = 0.86; z-score, replicate B = 0.9; z-score, replicate C = 0.56; inactive.
Depletion of ACVRL1 gave: mean z-score 1.6; z-score, replicate A = 1.75; z-score, replicate B = 1.58; z-score, replicate C = 1.47; inactive.
ROCK2 showed mean z-score 2.08; z-score, replicate A = 1.8; z-score, replicate B = 2.05; z-score, replicate C = 2.4; active.
Depletion of TMEM220 resulted in: mean z-score -0.38; z-score, replicate A = -0.09; z-score, replicate B = -0.15; z-score, replicate C = -0.89; inactive.
CNRIP1 gave mean z-score 0.71; z-score, replicate A = 0.78; z-score, replicate B = 0.79; z-score, replicate C = 0.55; inactive.
After knock-down of TMEM242 the results were mean z-score 0.54; z-score, replicate A = 0.29; z-score, replicate B = 0.33; z-score, replicate C = 0.98; inactive.
Against LINC00639, the entry reads mean z-score -1.14; z-score, replicate A = -0.93; z-score, replicate B = -1.28; z-score, replicate C = -1.2; inactive.
LOC392549 (retired record) scored mean z-score 1.66; z-score, replicate A = 1.12; z-score, replicate B = 1.69; z-score, replicate C = 2.17; inactive.
Against S1PR1, the entry reads mean z-score -0.62; z-score, replicate A = -0.41; z-score, replicate B = -0.41; z-score, replicate C = -1.05; inactive.
Depletion of VWA3B gave: mean z-score 0.62; z-score, replicate A = 0.47; z-score, replicate B = 0.48; z-score, replicate C = 0.91; inactive.
GALE showed mean z-score 0.77; z-score, replicate A = 0.68; z-score, replicate B = 1.01; z-score, replicate C = 0.62; inactive.
Knock-down of TRAF4 came out at: mean z-score 1.57; z-score, replicate A = 1.64; z-score, replicate B = 1.34; z-score, replicate C = 1.71; inactive.
BZW1P2 showed mean z-score -0.72; z-score, replicate A = -0.76; z-score, replicate B = -0.64; z-score, replicate C = -0.75; inactive.
With knock-down of SMR3A, the record shows mean z-score 0.23; z-score, replicate A = 0.14; z-score, replicate B = 0.54; z-score, replicate C = 0; inactive.
For EYA1, the entry reads mean z-score 1.16; z-score, replicate A = 1.04; z-score, replicate B = 1.33; z-score, replicate C = 1.13; inactive.
Silencing of DGAT2 gave: mean z-score 0.24; z-score, replicate A = 0.17; z-score, replicate B = 0.25; z-score, replicate C = 0.31; inactive.
Knock-down of MC2R gave: mean z-score -1.52; z-score, replicate A = -1.87; z-score, replicate B = -1.84; z-score, replicate C = -0.86; inactive.
Knock-down of KRT7 gave: mean z-score -0.03; z-score, replicate A = -0.06; z-score, replicate B = -0.4; z-score, replicate C = 0.39; inactive.
